Legend:
[1] = molecular target: HIV Env glycoprotein of HIV-1 isolate NL4-3 (HIV-1 strain NL4-3); test: cell-based or functional assay
[2] = molecular target: HIV Env glycoprotein of HIV-1 isolate BaL (HIV-1 strain BaL); test: cell-based or functional assay

Substance: MOLECULE-5 (IgG4-C34) (from UniProt P01861 99-327) (Fc fusion)
- IC50 (ng/mL), neutralization of NL4-3, TZM-bl assay [1]: 0.8 ng/mL
- IC50 (ng/mL), neutralization of BaL, TZM-bl assay [2]: 0.8 ng/mL

Substance: MOLECULE-5 (IgG2-C34) (from UniProt P01859 99-326) (Fc fusion)
- IC50 (ng/mL), neutralization of NL4-3, TZM-bl assay [1]: 0.8 ng/mL
- IC50 (ng/mL), neutralization of BaL, TZM-bl assay [2]: 1.1 ng/mL

Substance: MOLECULE-5 (IgG1-C34) (Fc fusion)
- IC50 (ng/mL), neutralization of NL4-3, TZM-bl assay [1]: 0.9 ng/mL
- IC50 (ng/mL), neutralization of BaL, TZM-bl assay [2]: 1.3 ng/mL

Substance: MOLECULE-5 (C34) (Fc fusion)
- IC50 (ng/mL), neutralization of NL4-3, TZM-bl assay [1]: 1.2 ng/mL
- IC50 (ng/mL), neutralization of BaL, TZM-bl assay [2]: 1.2 ng/mL

Substance: MOLECULE-5 (IgG3-C34) (from UniProt P01860 99-377) (Fc fusion)
- IC50 (ng/mL), neutralization of NL4-3, TZM-bl assay [1]: 0.8 ng/mL
- IC50 (ng/mL), neutralization of BaL, TZM-bl assay [2]: 0.8 ng/mL

— patent publication US20210238252A1
